PubChem BioAssay AID504761 – Drosophila RNAi Screening Center – 2011
The screen tested about 22,000 reagents; shown is a random part of those with a known target gene and a result. In the full data, 116 (0.52%) got an active call. 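Calls depend on retest data that are not deposited; infection was ranked per plate without normalising between plates; the unit of the infection score is not given.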 Not all columns of the deposit are shown. Reagent sequences are not shown. The record does not give: the amount of reagent, the time to read-out.

Assay: 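Genome-wide fly cell screen for genes dengue virus requires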 (primary screen)
Cells: D.Mel-2 cells from Drosophila
Reagent: long dsRNA against Drosophila genes
Conditions: infection with dengue virus type 2; dose and infection time not stated
Measured: 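Cells stained for dengue envelope protein and imaged; percent of infected cells per well on duplicate plates, ranked by infection, with stained nuclei counted for cell number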
Scale: infection score: higher = more virus-infected cells
Rule for the call: 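Very low infection ranking in both replicate wells (chance probability at most 0.065), then a retest showing infection dropped 1.5-fold or more at p below 0.05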
Calls: active = confirmed: knock-down lowers infection; inactive = not picked or not confirmed

With CG30259 [SID104183956], how do the results read?
infection score, replicate 1: 12.1; activity call: inactive

With CG30259 [SID104183957], how do the results read?
infection score, replicate 1: 16.7; activity call: inactive

Which result is listed for beta-PheRS [SID104195651]?
infection score, replicate 1: 2.59; activity call: inactive

With beta-PheRS [SID104204762], what was measured?
infection score, replicate 1: 15.1; activity call: inactive

How did the screen score CG33143 [SID104183943]?
infection score, replicate 1: 3.85; activity call: inactive

With CG33143 [SID104184246], how do the results read?
infection score, replicate 1: 9.94; activity call: inactive

How did the screen score CG33143 [SID104206131]?
infection score, replicate 1: 2.07; activity call: inactive

For Elo68beta [SID104189652], what was measured?
infection score, replicate 1: 1.24; activity call: inactive

What did the screen give for ocn [SID104196812]?
infection score, replicate 1: 2.07; activity call: inactive

For spo [SID104190919], what was measured?
infection score, replicate 1: 0.3; activity call: inactive

With Mst84B [SID104192371], what was measured?
infection score, replicate 1: 13.7; activity call: inactive

For Mst84B [SID104206311], what does the deposit list?
infection score, replicate 1: 18.7; activity call: inactive

For Rap2l [SID104184438], what does the deposit list?
infection score, replicate 1: 27.8; activity call: inactive

Which result is listed for Dhc36C [SID104183107]?
infection score, replicate 1: 0.67; activity call: active

What did the screen give for CG17350 [SID104182403]?
infection score, replicate 1: 4.97; activity call: inactive

With CG32450 [SID104191338], how do the results read?
infection score, replicate 1: 2.66; activity call: inactive

With CG12682 [SID104197665], what was measured?
infection score, replicate 1: 3.86; activity call: inactive

What is on record for Rubicon [SID104197681]?
infection score, replicate 1: 3.72; activity call: inactive

For Rubicon [SID104204536], how do the results read?
infection score, replicate 1: 3; activity call: inactive

With CG15044 [SID104199412], how do the results read?
infection score, replicate 1: 32.8; activity call: inactive

How did the screen score CG15044 [SID104201151]?
infection score, replicate 1: 1.72; activity call: inactive

For CG15044 [SID104206770], what was measured?
infection score, replicate 1: 6.27; activity call: inactive

For CG11327 [SID104181938], what does the deposit list?
infection score, replicate 1: 2.49; activity call: inactive

What did the screen give for Rbp9 [SID104180208]?
infection score, replicate 1: 1.92; activity call: inactive

With Rbp9 [SID104180571], what was measured?
infection score, replicate 1: 5.65; activity call: inactive

Which result is listed for Rbp9 [SID104208378]?
infection score, replicate 1: 36.6; activity call: inactive

With CG9380 [SID104184341], what was measured?
infection score, replicate 1: 25.2; activity call: inactive

A stretch taken from the entries so far, as a working copy:
CG33143 [SID104184246]: infection score, replicate 1 = 9.94; activity call = inactive
CG33143 [SID104206131]: infection score, replicate 1 = 2.07; activity call = inactive
